# Data taken from PubChem BioAssay AID372 (MTDP, 2006).
# The list shows a part of the results, in another mix than the full data. Active and inactive are the calls of the source. No stated cut-off is given here; in the data, active means inhibition above about 50%; inactive means the rest.
# Target: Gag-Pol polyprotein (Human immunodeficiency virus type 1 group M subtype B (isolate HXB2)) (UniProt P04585)
# Test: RNase H inhibition, HIV 1 Gag Pol polyprotein, FRET biochemical assay, screening (AID 372)
# Settings: HIV-1 RT RNase H, FRET RNA/DNA substrate fluorescence; at 10 µM; active compounds read high
row,Compound,inhibition
1,CP(=O)(Oc1ccccc1F)Oc1ccccc1F,inactive: 13%
2,O=[N+]([O-])c1nonc1COc1nonc1[N+](=O)[O-],inactive: 3%
3,CCOP(C)(=S)SCC(=O)NC(C)C(=O)O (centres undefined),inactive: 1%
4,CN(C)CCOC(=O)C(O)(c1ccccc1)c1ccccc1,inactive: 4%
5,CP(=O)(Nc1cccc(Br)c1)Oc1cccc(Cl)c1Cl (centres undefined),inactive: 7%
6,CCCCOP(=O)(CCC)OCCCC,inactive: 0%
7,Cc1cc(C)cc(OP(C)(=O)Nc2ccc(F)cc2)c1 (centres undefined),inactive: 9%
8,CP(=O)(Oc1ccccc1)Oc1ccccc1,inactive: 0%
9,CP(=O)(Oc1ccc(Cl)cc1)Oc1ccc(Cl)cc1,inactive: 6%
10,O=[N+]([O-])[N-][n+]1cnn(CCn2c[n+]([N-][N+](=O)[O-])cn2)c1,inactive: 1%
11,CP(=O)(Nc1ccc(Br)cc1)Oc1ccc(Cl)cc1 (centres undefined),inactive: 9%
12,Cc1cc(C)cc(OP(C)(=O)Nc2ccc(Cl)cc2)c1 (centres undefined),inactive: 16%
13,COc1ccc(OP(C)(=O)Nc2ccccc2)cc1 (centres undefined),inactive: 5%
14,CP(=O)(Oc1ccc(F)cc1)Oc1ccc(F)cc1,inactive: 9%
15,Cc1ccc(NP(C)(=O)Oc2ccc(Cl)cc2)cc1 (centres undefined),inactive: 5%
16,CCc1ccc(OP(C)(=O)O)cc1,inactive: 1%
17,CCOP(C)(=S)SCN(CC(=O)O)C(=O)OCc1ccccc1 (centres undefined),inactive: 0%
18,O=C(OCCCN1CCOCC1)C(O)(c1ccc(Br)cc1)c1ccc(Br)cc1,inactive: 8%
19,CC(C)c1ccc(OP(C)(=O)O)cc1,inactive: 5%
